From patent US20060035889A1, “Treatment for methamphetamine addiction and reduction of methamphetamine use using serotonin antagonists” (priority 2004, published 2006)

System: METH-sensitized rats
Assay: Reversal of METH-induced behavioral sensitization by 5-HT2A/2C antagonists (motor activity after acute METH challenge)
Conditions: rat, in vivo
Source text: Automation of observational evaluations was accomplished using computerized small animal monitors (AccuScan Instr. Inc., Columbus, Ohio). […] One feature of drug-induced behavioral sensitization is heterogeneity of motor responses and the AccuScan monitors quantify numerous behavioral indices. This is a critical point for the motor profile is exquisitely related to METH dose, the drug history of the rat and observation time. After 3- or 31-days of withdrawal from repeated METH injections, rats were allowed to achieve baseline motor activity with a 30 min habituation period, challenged with 1 mg/kg sc METH and monitored for 90 min. As shown in FIGS. 1a-b, a “sensitized” motor response was clearly expressed in the METH-pretreatment group to the METH challenge at the 3-day withdrawal period for both Horizontal Activity and Stereotypy Counts (data not shown) and with slight early effects on Vertical Movements.
Multiple 5-HT2A/2C antagonists with differing pharmacological profiles were tested for their ability to ameliorate METH-induced behavioral sensitization when administered after sensitization has developed. […]. The doses were selected based on the antagonists' ability to block 5-HT2A- and 5-HT2C-mediated activity and their pharmacokinetic profiles. […]

CN1CCN2c3ccccc3Cc3ccccc3C2C1 (centres unmarked) [mianserin]
horizontal and vertical activity endpoints in METH-pretreated rats: further reduced
total distance traveled, ambulatory time, vertical activity (early) and vertical time (early) indices of METH-induced sensitized behaviors: attenuated
